One experiment has as its target ZtNMTΔ99 (Zymoseptoria tritici, UniProt F9XBB7). Put plainly: ZtNMT IC50 assay (CPM, enzymatic). Type of experiment: biochemical. The note with it: Table S1.
In another experiment the test system is Z. tritici. Put plainly: Anti-proliferative EC50 assay (MTS viability). The following applies: Table S1.

Sequences of proteins named here, by UniProt entry; tags and fusion partners are left off. A change or cut given only in a name is not applied to a line headed by its entry. Residues count along the entry.
UniProt F9XBB7, 436-871 limits assumed, stated change not applied: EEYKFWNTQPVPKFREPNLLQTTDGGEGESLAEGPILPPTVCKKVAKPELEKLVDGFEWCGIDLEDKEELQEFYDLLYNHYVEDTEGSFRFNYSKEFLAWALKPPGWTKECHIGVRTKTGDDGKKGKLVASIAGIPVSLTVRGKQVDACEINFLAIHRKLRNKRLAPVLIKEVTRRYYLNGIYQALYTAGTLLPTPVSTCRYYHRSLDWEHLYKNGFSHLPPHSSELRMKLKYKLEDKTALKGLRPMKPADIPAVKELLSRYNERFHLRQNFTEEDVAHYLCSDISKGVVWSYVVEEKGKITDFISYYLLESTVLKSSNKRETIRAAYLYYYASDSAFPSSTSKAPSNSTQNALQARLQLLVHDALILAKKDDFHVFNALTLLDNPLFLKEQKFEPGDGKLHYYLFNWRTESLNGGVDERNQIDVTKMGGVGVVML

For the compound `c1cnc(OC2CCNCC2)c(-c2nc(Cc3cccc4ncccc34)no2)c1`, the half-maximal inhibitory concentration (IC50) – broadly, the midpoint of a concentration-inhibition curve – against ZtNMTΔ99 was found to be 0.52 µM. In addition, in the experiment with Z. tritici, the EC50 (usually the concentration giving half of the maximal effect) amounted to 160 µM.

The values above are taken from paper PMC8341946, “Wheat pathogen Zymoseptoria tritici N-myristoyltransferase inhibitors: on-target antifungal activity and an unusual metabolic defense mechanism” (RSC Chemical Biology, 2020).
